Data from patent EP1951748B1, “HEPATITIS C VIRUS VARIANTS” (Vertex Pharmaceuticals, Inc., priority 2005, dated 2007).

Assays:
HCV NS3 protease V36L = conditions: enzyme IC50 of V36L compared to the genotype 1a HCV-H reference strain; 15 min
HCV NS3 protease V36M = conditions: enzyme IC50 of V36M compared to the genotype 1a HCV-H reference strain, 15 min
HCV NS3 protease R155K = conditions: enzyme IC50 of R155K compared to the genotype 1a HCV-H reference strain, 15 min
HCV NS3 protease R155T = conditions: enzyme IC50 of R155T compared to the genotype 1a HCV-H reference strain, 15 min

COc1ccc2c(O[C@@H]3C[C@H]4C(=O)N[C@]5(C(=O)O)C[C@H]5/C=C\CCCCC[C@H](NC(=O)OC5CCCC5)C(=O)N4C3)cc(-c3csc(NC(C)C)n3)nc2c1 [BILN 2061]
Fold change (HCV NS3 protease V36L): 0.5
Fold change (HCV NS3 protease V36M): 0.5 and 0.4
Fold change (HCV NS3 protease R155K): 137 and >183
IC50 (HCV NS3 protease T54S; T54S): 3.6 nM
Fold change (HCV NS3 protease T54S; enzyme IC50 of T54S compared to the genotype 1a HCV-H reference strain, 15 min): 0.8
Fold change (HCV NS3 protease R155T): 151 and 174

Several values for one entry are separate records, joined by “and”; a condition that tells them apart may be missing. Identical values can stand only once.
